A mixed list of measured activities; the numbers were collected in NIAID ChemDB.

Common to all: whole-cell or culture tests; agent: Herpes simplex virus 1; read-out: inhibition

An empty or dashed field is not shown.

structure | tested at | cells | method | strain or isolate | value
O=c1[nH]c(=O)n([C@@H]2C[C@H](O)[C@@H](CO)O2)cc1CCCl | 3 µg/mL | HEP-2 | cytopathic effect |  | ≥25%
O=c1c2cccc(Cl)c2[nH]c2cc(O)cc(O)c12 | 10 µM |  |  | KOS | 50%
Nc1ccn([C@H]2O[C@@H](CO)[C@H](O)[C@H]2F)c(=O)n1 | 0.1 µM | VERO | virus yield | F | 10%
Nc1nc2c(ncn2COCCO)c(=O)[nH]1 | 0.3 µg/mL | VERO | virus yield | 7401H | 97.91%
O=S(=O)(c1ccc(OCc2ccc(F)cc2)cc1)c1ccc(OCc2ccc(F)cc2)cc1 | 30 µM | VERO | plaque count |  | >50%
Clc1ncnc2nc(-c3cscn3)[nH]c12 | 1 µg/mL | VERO | plaque count |  | 0%
CCn1cnc(=N)c2[nH]cnc21 | 25 µg/mL | BSC-1 | plaque count |  | 0%
Nc1[nH]c(=S)nc2c1C(c1ccc(Cl)cc1)c1c([nH]c(=S)[nH]c1=O)N2 | 10 µg/mL | VERO |  |  | 30%
CCCCn1cnc(=N)c2[nH]cnc21 | 6 µg/mL | BSC-1 | plaque count |  | 0%
O=c1[nH]c(=O)n([C@H]2C[C@H](O)[C@@H](CCl)O2)cc1CCCl | 100 µg/mL | HEP-2 | cytopathic effect |  | ≥25%
CC(=O)NC1C=CN(c2cn(C(O)CP(=O)(O)O)nn2)C(=O)N1 | 100 µM | HEL |  | TK- ACV-r KOS | 0%
Cc1cn([C@@H]2O[C@H](CO)[C@@H](O)[C@@H]2F)c(=O)[nH]c1=O | 0.03 µg/mL | VERO | cytopathic effect |  | ≥25%
COc1ccc(NC(=O)Nc2ccc(Cl)cc2)cc1NC(=O)Nc1ccc(Cl)cc1 | 30 µM | VERO | plaque count |  | <50%
O=c1[nH]c(=O)n([C@H]2C[C@H](O)[C@@H](CI)O2)cc1CCI | 30 µg/mL | HEP-2 | cytopathic effect |  | ≥25%
Nc1nc2c(ncn2COC(CO)CO)c(=O)[nH]1 | 16 µM | WI-38 | plaque count | SC16 (mutant TR7) | 90%
CNc1[nH]c(=S)nc2c1C(c1ccc([N+](=O)[O-])cc1)c1c([nH]c(=S)[nH]c1=O)O2 | 50 µg/mL | VERO |  |  | 70%
COC(=O)/C=C/c1cn([C@H]2C[C@H](O)[C@@H](CO)O2)c(=O)[nH]c1=O | 0.3 µg/mL | HEP-2 | cytopathic effect |  | ≥25%
O=c1[nH]c(=O)n([C@H]2C[C@H](O)[C@@H](CO)O2)cc1/C=C/Br | 0.1 µM | VERO | plaque count | C42 | >99%
O=C(NNCc1cccc(O)c1O)c1ccccc1O | 3.9 µM | HEP-2 | PCR | KOS | 90%
Nc1nc2c(ncn2COC(CO)CO)c(=O)[nH]1 | 0.003 µg/mL | VERO | cytopathic effect |  | ≥25%
COc1cccc2c1C(=O)c1c(O)c3c(c(O)c1C2=O)C[C@@](O)(C(=O)CO)C[C@@H]3O[C@H]1C[C@H](N)[C@H](O)[C@H](C)O1 | 0.5 µM | VERO | virus yield |  | 15%
O=S(=O)(c1ccc(O)cc1)c1ccc(OCc2ccc(Cl)cc2)cc1 | 30 µM | VERO | plaque count |  | >50%
CC(=O)O[C@]1(C)/C=C/C[C@@H](C)/C=C/[C@@]2(C)CC[C@@H](C(C)(C)O)[C@@H]2[C@@H](O)C1 | 15 µM | VERO | cytopathic effect |  | 87%
O=c1[nH]c(=O)n([C@H]2C[C@H](O)[C@@H](CO)O2)cc1/C=C/Br | 0.007 µg/mL | PRK | cytopathic effect | KOS | ≥25%
N=c1ncn(Cc2cccc([N+](=O)[O-])c2)c2nc[nH]c12 | 25 µg/mL | BSC-1 | plaque count |  | 0%
Nc1nc2c(ncn2COCCO)c(=O)[nH]1 | 5 µg/mL | HL | virus yield | VL8737 | 38%
C/C=C/c1cn([C@H]2C[C@H](O)[C@@H](CO)O2)c(=O)[nH]c1=O | 1 µM | VERO | plaque count | F-2 | 39%
CCCCCC[C@@H]([C@H](C)O)n1cnc2c(N)ncnc21 | 50 µM | HELA F |  |  | 90%

Percent inhibition refers to the dose given; in toxicity tests it is the harm to the cells. Lines come from different laboratories, so protocols vary.